Measurements taken from article PMC12734540, “Unraveling the Potential Antiviral Activity of Isoxazoline-Carbocyclic Monophosphate Nucleotides Against Echovirus 11” (Microorganisms, 2025).

Tested on: Echovirus 11
Assay: Post-infection CPE inhibition assay (crystal violet)
Format: cell-based, Echovirus 11 lineage 1
Settings: CC50 by MTS / EC50 by CPE inhibition, VERO 76 cells

SMILES	Selectivity Index (SI = CC50/EC50)
O=P(O)(O)OC1CC(n2cnc3c(Cl)ncnc32)C2C(c3c4ccccc4c(Br)c4ccccc34)=NOC12 (centres unmarked) [4a]	8.99
O=P(O)(O)OC1CC(n2cnc3c(Cl)ncnc32)C2ON=C(c3c4ccccc4c(Br)c4ccccc34)C12 (centres unmarked) [4b]	2.31
